Measured values from several laboratories, pooled; numbers as filed in NIAID ChemDB.

Common to all: tests on isolated targets; agent: Hepatitis C virus

ICn is the concentration giving n% inhibition. Neighbouring rows are from separate reports. Blank or dashed fields: not listed here. Two numbers with a dash give a range or band. Inhibition is in % at the dose shown (toxicity tests: loss of growth or viability).

SMILES	strain	target	method	measure	tested at	result
O=C(O)/C=C/c1ccc(NC(=O)[C@H](NC(=O)c2ccc3c(c2)nc(-c2ccoc2)n3C2CCCCC2)c2ccccc2)cc1	-	NS5B polymerase	-	IC50	-	0.5–5 µM
C=Cc1ccc(C(NC(=O)OC2CCCC2)C(=O)Nc2ccc(C(=O)NS(=O)(=O)c3ccc(C(F)(F)F)cc3)cc2)cc1Oc1cc(OC)nc(-c2ccccc2)n1	GT1a	Nonstructural protein 3/4A	FRET	Ki	-	0.055 µM
COc1ccc2c(O[C@@H]3C[C@@H](C(=O)NC4(C(=O)O)CC4)N(C(=O)[C@@H](NC(=O)[C@@H](NC(C)=O)C4CCCCC4)C(C)C)C3)ccnc2c1	-	NS3/NS4A serine protease	-	IC50	-	0.8 µM
C=CC1CC1(NC(=O)[C@@H]1C[C@@H](OC(=O)Nc2c(CC)cccc2C(C)C)CN1C(=O)[C@@H](NC(=O)OC(C)(C)C)C(C)(C)C)C(=O)NS(=O)(=O)C1CC1	BMS/H77C/J416S	NS3/NS4A protease	-	IC50	-	1–10 µM
O=C(O)c1ccc(-c2ccc(-c3nc4cc(C(=O)O)[nH]n4c(=O)c3C3CCCCC3)cc2)cc1	-	RNA-dependent RNA polymerase	-	IC50	-	1–10 µM
O=C(NCc1ccc(N2CCNC2=O)cc1)Nc1nc2c(s1)-c1c(cnn1-c1ccccc1C(F)(F)F)C2	-	PI4KIIIalpha	PCR	IC50	-	0.027 µM
COc1cc(-c2cc(-c3ccc(OCc4ccccc4)cc3)nc3cc(C(=O)O)nn23)ccc1Cl	-	RNA-dependent RNA polymerase	-	IC50	-	1–10 µM
CC(C)C[C@H](NC(=O)CCC(=O)O)C(=O)N[C@@H](CCC(=O)O)C(=O)N[C@@H](CCC(=O)O)C(=O)NC1(C(=O)O)CC1	-	Nonstructural protein 3 NTPase/helicase	-	IC50	-	>167 µM
C=Cc1ccc(C(NC(=O)OC(C)(C)C)C(=O)Nc2ccc(C(=O)NS(=O)(=O)c3ccc(C(F)(F)F)cc3)cc2)cc1Oc1cc(OC)nc(-c2ccccc2)n1	GT1a	Nonstructural protein 3/4A	FRET	Ki	-	0.046 µM
CC(NC(=O)c1ccc2c(c1)nc(-c1ccoc1)n2C1CCCCC1)C(=O)Nc1cc(CC(=O)O)ccc1O	-	NS5B polymerase	-	IC50	-	0.5–5 µM
N#Cc1c(C2CCCCC2)nc(SCc2ccccc2)[nH]c1=O	-	NS3/NS4A helicase	-	IC50	-	15–40 µM
CC(C)C[C@H](NC(=O)[C@@H](NC(=O)OC(C)(C)C)C1CCCC1)C(=O)N[C@@H](CC(F)F)C(=O)C(=O)O	-	NS3 serine protease	-	IC50	-	0.38 µM
C=CC1CC1(NC(=O)[C@@H]1C[C@@H](OC(=O)Nc2ccccc2C(=O)O)CN1C(=O)[C@@H](NC(=O)OC(C)(C)C)C(C)(C)C)C(=O)NS(=O)(=O)C1CC1	BMS/H77C/J416S	NS3/NS4A protease	-	IC50	-	0.1–1 µM
O=C(O)c1cc2nccc(-c3ccccc3-c3ccccc3Oc3ccccc3)n2n1	-	RNA-dependent RNA polymerase	-	IC50	-	>10 µM
N#Cc1c(C2CCCCC2)nc(SCC(=O)Nc2cc(Cl)cc(Cl)c2)[nH]c1=O	-	NS3/NS4A helicase	-	IC50	-	<15 µM
CCCCCCCCCCCC1=C(O)C(=O)C=C(O)C1=O	-	Nonstructural protein 3 protease	-	IC50	-	21 µM
CC(C)(C)OC(=O)C(=O)N[C@H](C(=O)N1C[C@@H](n2cc(-c3ccccc3)nn2)C[C@H]1C(=O)N[C@H](Cc1ccccc1)C(=O)NS(=O)(=O)C1CC1)C(C)(C)C	-	Nonstructural protein 3/4A	FRET	IC50	-	>100 µM
Cn1c(Cc2nc3ccc(C(N)=O)cc3[nH]2)nc2ccc(C(=O)NC(CP(=O)(O)O)C(=O)O)cc21	-	NS3/NS4A serine protease	-	Ki	-	0.027–1 µM
CC(=O)N[C@H](C(=O)N[C@@H](CCC(=O)O)C(=O)N[C@@H](CCC(=O)O)C(=O)N[C@@H](CS)C(=O)O)C1CCCCC1	-	Nonstructural protein 3 NTPase/helicase	-	inhibition	167 µM	74%
OCc1ccn2cc(-c3cn(Cc4cc(Cl)c(Cl)c(Cl)c4)nn3)nc2c1	-	Nonstructural protein 3	fluorescence	IC50	-	>100 µM
C[C@H]1CCC[C@H](C)C1n1c(-c2ccoc2)nc2cc(C(=O)NC3(C(=O)Nc4ccc(/C=C/C(=O)O)cc4)CCCC3)ccc21	-	NS5B polymerase	-	IC50	-	0.5–5 µM
CCCC[C@H](NC(=O)[C@@H]1[C@@H]2[C@H](CN1C(=O)[C@@H](NC(=O)NC1(CS(=O)(=O)C(C)(C)C)CCCCC1)C(C)(C)C)C2(C)C)C(=O)C(=O)NC1CC1	-	NS3	substrate cleavage	Ki	-	0.006 µM
C=Cc1ccc(C(NC(=O)[C@@H](NC(=O)OC(C)(C)C)C(C)(C)C)C(=O)Nc2ccc(C(=O)NS(=O)(=O)c3ccc(C(F)(F)F)cc3)cc2)cc1Oc1cc(OC)nc(-c2ccccc2)n1	GT1a	Nonstructural protein 3/4A	FRET	Ki	-	0.03 µM
COc1cccc(-c2cc(-c3ccc(Oc4ccccc4)cc3)n3nc(C(=O)O)cc3n2)c1	-	RNA-dependent RNA polymerase	-	IC50	-	>10 µM
C=Cc1ccc(C(NC(=O)OC(C)(C)C)C(=O)Nc2ccccc2C(=O)NS(=O)(=O)c2ccc(C(F)(F)F)cc2)cc1Oc1cc(OC)nc(-c2ccccc2)n1	GT1a	Nonstructural protein 3/4A	FRET	Ki	-	0.24 µM
O=C(O)CCCC(=O)N[C@@H](CCC(=O)O)C(=O)N[C@@H](CCC(=O)O)C(=O)N[C@@H](CS)C(=O)O	-	Nonstructural protein 3 NTPase/helicase	-	inhibition	16.7 µM	29%
C=CC1CC1(NC(=O)[C@@H]1C[C@@H](OC(=O)Nc2ccccn2)CN1C(=O)[C@@H](NC(=O)OC(C)(C)C)C(C)(C)C)C(=O)NS(=O)(=O)C1CC1	BMS/H77C/J416S	NS3/NS4A protease	-	IC50	-	0.1–1 µM
N#Cc1c(-c2ccc(Cl)cc2)nc(SCc2ccccc2)[nH]c1=O	-	NS3/NS4A helicase	-	IC50	-	<15 µM
O=C(O)c1cc2nc(-c3ccccc3)cc(=O)n2[nH]1	-	RNA-dependent RNA polymerase	-	IC50	-	>10 µM
N#Cc1c(-c2cccs2)nc(SCc2ccccc2)[nH]c1=O	-	NS3/NS4A helicase	-	IC50	-	15–40 µM
CC[C@H](C)[C@H](NC(=O)[C@@H](NC(=O)CCC(=O)O)C1CCCCC1)C(=O)N[C@@H](CC1CCCCC1)C(=O)NC1(C(=O)O)CC1	-	Nonstructural protein 3 NTPase/helicase	-	IC50	-	<167 µM
C=CC1CC1(NC(=O)[C@@H]1C[C@@H](OC(=O)Nc2cc(F)ccc2-n2cccn2)CN1C(=O)[C@@H](NC(=O)OC(C)(C)C)C(C)(C)C)C(=O)NS(=O)(=O)C1CC1	BMS/H77C/J416S	NS3/NS4A protease	-	IC50	-	<0.1 µM
COc1cc(/C=N/Nc2cc(C)nc3c(OC)cccc23)cc(OC)c1OC	-	Nonstructural protein 3 protease	-	IC50	-	>100 µg/mL
Cc1ccc2nc(-c3ccc(N=NNc4ccc(-c5nc6ccc(C)c(S(=O)(=O)O)c6s5)cc4)cc3)sc2c1S(=O)(=O)O	-	NS3 helicase	ATP / substrate cleavage / absorbance	inhibition	200 µM	18%
OCc1nnc(-c2ccc(N3CCC(Oc4ccccc4C(F)(F)F)CC3)nn2)o1	-	Nonstructural protein 3	fluorescence	IC50	-	>100 µM
N[C@H](C(=O)N[C@@H](CCC(=O)O)C(=O)N[C@@H](CCC(=O)O)C(=O)N[C@@H](CS)C(=O)O)C1CCCCC1	-	Nonstructural protein 3 NTPase/helicase	-	inhibition	167 µM	0%
CS(=O)c1nc2ccc(NC(=O)C3(NC(=O)c4ccc5c(c4)nc(-c4ccoc4)n5C4CCCCC4)CCCC3)cc2s1	-	NS5B polymerase	-	IC50	-	5–25 µM
CC[C@H](C)[C@H](NC(=O)[C@H](CC(C)C)NC(=O)CCC(=O)O)C(=O)N[C@@H](CC1CCCCC1)C(=O)NC1(C(=O)O)CC1	-	Nonstructural protein 3 NTPase/helicase	-	inhibition	167 µM	7–19%
C=CC1CC1(NC(=O)[C@@H]1C[C@@H](OC(=O)Nc2cc(C)ccc2-c2nccs2)CN1C(=O)[C@@H](NC(=O)OC(C)(C)C)C(C)(C)C)C(=O)NS(=O)(=O)C1CC1	BMS/H77C/J416S	NS3/NS4A protease	-	IC50	-	<0.1 µM
CC(=O)N[C@@H](CC(=O)O)C(=O)N[C@@H](CCC(=O)O)C(=O)N[C@H](C(=O)N[C@@H](CCC(=O)O)C(=O)N[C@@H](CC1CCCCC1)C(=O)N[C@@H](CC(F)F)C(=O)O)C(c1ccccc1)c1ccccc1	-	NS3/NS4A serine protease	-	Ki	-	0.02 µM
O=C(O)CCC(=O)N[C@H](C(=O)N[C@@H](CCC(=O)O)C(=O)N[C@@H](Cc1ccc2ccccc2c1)C(=O)N[C@@H](CS)C(=O)O)C(c1ccccc1)c1ccccc1	-	Nonstructural protein 3 NTPase/helicase	-	inhibition	83.5 µM	74%
C=CC1CC1(NC(=O)[C@@H]1C[C@@H](OC(=O)Nc2ccc(OC)cc2)CN1C(=O)[C@@H](NC(=O)OC(C)(C)C)C(C)(C)C)C(=O)NS(=O)(=O)C1CC1	BMS/H77C/J416S	NS3/NS4A protease	-	IC50	-	0.1–1 µM
C/C(=C\c1ccc(NC(=O)C2(NC(=O)c3ccc4c(c3)nc(-c3ccoc3)n4C3CCCCC3)CCCC2)cc1)C(=O)O	-	NS5B polymerase	-	IC50	-	<0.5 µM
N#Cc1c(C2CCCCC2)nc(SCc2cc(Cl)ccc2Cl)[nH]c1=O	-	NS3/NS4A helicase	-	IC50	-	<15 µM
CC(C)C[C@H](NC(=O)[C@H](CCC(N)=O)NC(=O)[C@@H](NC(=O)CCC(=O)O)C1CCCCC1)C(=O)N[C@@H](CS)C(=O)O	-	Nonstructural protein 3 NTPase/helicase	-	inhibition	16.7 µM	71%
C=CC1CC1(NC(=O)[C@@H]1C[C@@H](OC(=O)Nc2cc(C(C)=O)ccc2N2CCC(C(=O)OCC)CC2)CN1C(=O)[C@@H](NC(=O)OC(C)(C)C)C(C)(C)C)C(=O)NS(=O)(=O)C1CC1	BMS/H77C/J416S	NS3/NS4A protease	-	IC50	-	<0.1 µM
N#Cc1c(Cc2ccccc2)nc(SCc2ccccc2)[nH]c1=O	-	NS3/NS4A helicase	-	IC50	-	>40 µM
NC(=O)c1cc2nc(-c3ccc(Cl)cc3)cc(-c3ccc(Oc4ccccc4)cc3)n2n1	-	RNA-dependent RNA polymerase	-	IC50	-	>10 µM
OCc1nnc(-c2ccc(N3CCC(Oc4cc(F)ccc4Br)CC3)nn2)o1	-	Nonstructural protein 3	fluorescence	IC50	-	>100 µM
O=C(O)CNc1cc(-c2ccc(Cl)cc2)nc2cc(C(=O)O)nn12	-	RNA-dependent RNA polymerase	-	IC50	-	>10 µM
N#Cc1c(-c2ccc(Cl)cc2)nc(Nc2ccc(Cl)cc2)[nH]c1=O	-	NS3/NS4A helicase	-	IC50	-	15–40 µM

For reference, 7 entries again:

SMILES,strain,target,method,measure,tested at,result
C/C(=C\c1ccc(NC(=O)C2(NC(=O)c3ccc4c(c3)nc(-c3ccoc3)n4C3CCCCC3)CCCC2)cc1)C(=O)O,-,NS5B polymerase,-,IC50,-,<0.5 µM
N#Cc1c(-c2cccs2)nc(SCc2ccccc2)[nH]c1=O,-,NS3/NS4A helicase,-,IC50,-,15–40 µM
N#Cc1c(C2CCCCC2)nc(SCC(=O)Nc2cc(Cl)cc(Cl)c2)[nH]c1=O,-,NS3/NS4A helicase,-,IC50,-,<15 µM
O=C(O)c1cc2nccc(-c3ccccc3-c3ccccc3Oc3ccccc3)n2n1,-,RNA-dependent RNA polymerase,-,IC50,-,>10 µM
CC(C)(C)OC(=O)C(=O)N[C@H](C(=O)N1C[C@@H](n2cc(-c3ccccc3)nn2)C[C@H]1C(=O)N[C@H](Cc1ccccc1)C(=O)NS(=O)(=O)C1CC1)C(C)(C)C,-,Nonstructural protein 3/4A,FRET,IC50,-,>100 µM
N#Cc1c(C2CCCCC2)nc(SCc2ccccc2)[nH]c1=O,-,NS3/NS4A helicase,-,IC50,-,15–40 µM
OCc1ccn2cc(-c3cn(Cc4cc(Cl)c(Cl)c(Cl)c4)nn3)nc2c1,-,Nonstructural protein 3,fluorescence,IC50,-,>100 µM